Assay results as given in patent US20050170334A1.

Key:
NM14 (influenza A virus) = assay: ELISA, peptide coated, antibody 10 µg/ml
NM13 (influenza A virus) = assay: ELISA, peptide coated, antibody 10 µg/ml
M12 (influenza A virus) = assay: ELISA, peptide coated, antibody 10 µg/ml
CM13 (influenza A virus) = assay: ELISA, peptide coated, antibody 10 µg/ml
NM12 (influenza A virus) = assay: ELISA, peptide coated, antibody 10 µg/ml
CM15 (influenza A virus) = assay: ELISA, peptide coated, antibody 10 µg/ml
CM14 (influenza A virus) = assay: ELISA, peptide coated, antibody 10 µg/ml
CM12 (influenza A virus) = assay: ELISA, peptide coated, antibody 10 µg/ml
NM11 (influenza A virus) = assay: ELISA, peptide coated, antibody 10 µg/ml
CM17 (influenza A virus) = assay: ELISA, peptide coated, antibody 10 µg/ml
CM16 (influenza A virus) = assay: ELISA, peptide coated, antibody 10 µg/ml
[1] = target: M2 expressed on A/HK/8/68 infected MDCK cells (influenza A virus A/HK/8/68); assay: cell-based ELISA, infected MDCK cells

B1: N547 (antibody, V domains shown)
VH: EVQLVESGGGLVKPGGSLRLSCAASGFTFSNALMSWVRQAPGKGLEWVGRIKSKTNGGTTDYAAPVKGRFTISRDDSKNTLYLQMNSLKTEDTAVYYCTTHLRYFDWLSDYWGQGTLVTVSS
VL: QSVLTQPPSMSAAPGQKVTISCSGSSSNIGNNYISWYQQLPGTAPKVLIYDNNKRPSGIPDRFSGSKSGTSATLGITGLQTGDEADYYCGSWDSSLSAGVFGTGTKVTVLG
ELISA (OD450) (NM14 (influenza A virus)): 0.16 OD450 | ELISA (OD450) (NM13 (influenza A virus)): 0.06 OD450 | ELISA (OD450) (M12 (influenza A virus)): 0.07 OD450 | ELISA (OD450) (CM13 (influenza A virus)): 0.08 OD450 | ELISA (OD450) (NM12 (influenza A virus)): 0.16 OD450 | ELISA (OD450) (CM15 (influenza A virus)): 0.08 OD450 | ELISA (OD450) (CM14 (influenza A virus)): 0.08 OD450 | ELISA (OD450) (CM12 (influenza A virus)): 0.07 OD450 | ELISA (OD450) (NM11 (influenza A virus)): 0.07 OD450 | ELISA (OD450) (CM17 (influenza A virus)): 0.08 OD450 | ELISA (OD450) (CM16 (influenza A virus)): 0.08 OD450 | EC50 [1]: 0.466 µg/mL
